Experimental data published in ChEMBL document CHEMBL1212795, “Transferable quinolone resistance in Vibrio cholerae” (2010).

Assays:
Escherichia coli [1] = conditions: J53 SXT2
Escherichia coli [2] = conditions: J53 TET2

Q: What does the source list for GENTAMICIN?
A: MIC (Escherichia coli [1]): 0.5 µg/mL; MIC (Escherichia coli [2]): 0.5 µg/mL
